Reference: PubChem BioAssay AID1259414 (Drosophila RNAi Screening Center, 2018)
The screen tested about 24,000 reagents; below is a random part of those that have a named target and a result. Over the whole deposit, about 1,210 (5%) got an active call. 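Inactive calls also include excluded dsRNAs with several or no targets, genes unexpressed in JW18, and well A1, regardless of score.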 A number with no mark means an inactive call. The numbers tell different reagents against one gene apart. Names joined by + are all predicted targets of the reagent. No sequences are given here.

Test: 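Fly genes that alter Wolbachia amount inside host cells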 (primary screen)
Cell system: Drosophila JW18 cells infected with Wolbachia
Reagents: long dsRNA against Drosophila genes, 0.25 µg dsRNA per well of a 384-well plate
Duration: 5 days
Treatment: cells persistently infected with Wolbachia before knock-down; no added drug
Detection: 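Imaged fluorescence in situ signal for Wolbachia 23S rRNA per DAPI-counted host cell, given as a robust z-score within each plate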
Reading the numbers: Wolbachia per cell robust z: higher = more Wolbachia per host cell than the plate typical
Active means: 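Active if absolute robust z reaches 1.5 in two or more of three replicates, leaving out multi- or no-target dsRNAs, genes unexpressed in JW18 and A1 wells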

Gene	reagent	Wolbachia per cell robust z, rep 1	Wolbachia per cell robust z, rep 2	Wolbachia per cell robust z, rep 3
Ppm1	1	0.32	-2.9	-1.2
Ppm1	2	-0.787	0.347	-0.0146
Zasp67	1	1	-0.985	-5.64
Zasp67	2	0.0745	1.16	1
exex	1	-0.681	-4.06	0.269
exex	2	-1.68	-1.51	-0.622
CG33285	1	-0.683	-1.56	-0.29
CG33285	2	-1.01	0.454	0.19
CG3448	1	-2.97	-0.336	0.601
CG3448	2	0.793	-0.308	-1.17
Sec15	1	0.932	-2.88	0.323
Sec15	2	1.11	-2.86	1.54
CG4860	1	-4.29 (active)	0.91	-2.92
CG4860	2	-1.63	0.351	0.053
Ogg1	1	-0.123	0.807	0.257
slo	1	0.204	0.292	-0.802
slo	2	-5.15	-3.15	-0.716
CG14564	1	-0.491	0.808	-5.13
CG14564	2	0.778	-1.71	0.517
CG32640 + CG32641	1	1.1	-0.694	0.631
CG32055	1	-0.471	1.01	-0.942
mthl9	1	0.401	0.358	-0.711
hng1	1	-0.528	-1.07	0.192
ArfGAP3	1	0.199	-0.575	-0.588
ArfGAP3	2	-0.262	0.296	-0.573
GstD5	1	0.754	-1.2	-3.31
GstD5	2	-2.14 (active)	-2.54	-1.03
pelo	1	0.277	0.937	0.0662
Cpr66D	1	1.23	-2.36	0.393
Cpr66D	2	0.164	0.18	-0.736
GCS1	1	0.0132	-0.0222	1.42
GCS1	2	0.673	1.08	-0.543
lwr	1	-0.347	1.01	2.01
lwr	2	0.676	-1.32	0.763
CG44433 + CG44434 + CG44435	1	-0.792	1.83	0.723
CG31198	1	-1.62	0.258	0.281
CG4455	1	1.22	0.834	-1.43
CG4455	2	0.0754	-1.21	-1.31
CG7601	1	0.998	0.0131	-0.103
mgl	1	-0.142	0.0865	0.219
mgl	2	-3.01	-0.236	-0.596
mgl	3	-0.66	0.975	0.296
mgl	4	0.816	-0.346	0.354
Tomosyn	1	0.302	0.114	0.308
Tomosyn	2	-0.646 (active)	-3.43	-2.55
Tomosyn	3	-4.84	-1.37	0.672
Tomosyn	4	0.437	0.653	-1.69
Tomosyn	5	0.12	-1.48	-0.00152

7 entries from above, sorted by “Wolbachia per cell robust z, rep 1”, high to low:
Gene	reagent	Wolbachia per cell robust z, rep 1	Wolbachia per cell robust z, rep 2	Wolbachia per cell robust z, rep 3
Cpr66D	1	1.23	-2.36	0.393
lwr	2	0.676	-1.32	0.763
GCS1	2	0.673	1.08	-0.543
Cpr66D	2	0.164	0.18	-0.736
GCS1	1	0.0132	-0.0222	1.42
lwr	1	-0.347	1.01	2.01
CG44433 + CG44434 + CG44435	1	-0.792	1.83	0.723

The results go on:
Gene	reagent	Wolbachia per cell robust z, rep 1	Wolbachia per cell robust z, rep 2	Wolbachia per cell robust z, rep 3
CG11099	1	-1.59	-0.0659	1.44
numb	1	0.109	0.556	-0.607
numb	2	0.25	0.547	-0.332
Cyp28a5	1	0.96	0.428	0.234
Vm34Ca	1	0.759	0.409	-1.47
Vm34Ca	2	0.895	-1.18	-0.383
CG31538	1	0.498	-0.0613	1.56
mia	1	0.353	0.953	-2.18
rudhira	1	0.838	-0.634	-0.365
rudhira	2	0.855	0.565	0.76
rudhira	3	-0.61	-2.18	-1.2
alpha-Est1	1	0.886	0.815	-1.41
beat-IV	1	0.137	-1.44	-1.74
beat-IV	2	-2.74	0.0482	0.571
Coa8	1	-0.571	-3.01	-0.546
CG2875	1	-2.96 (active)	0.874	-4
CG31230	1	0.545	-0.715	0.681
CG31230	2	-0.154	-1.41	-1.42
snoRNA:U3:9B	1	2.33	0.392	1.05
mei-P22	1	-0.507	-3.99	0.51
CG30428	1	-0.713	0.902	-0.348
CG30428	2	1.34	0.999	0.205
PGRP-LA	1	-0.0724	-5.93	-0.72
PGRP-LA	2	0.449	-1.16	-1.46
beta-PheRS	1	-1.03	-0.987	0.102
beta-PheRS	2	-1.91	-0.867	-0.721
bbx + waw	1	0.324	-1.68	-1.98
bbx + waw	2	-6.38	-2.25	-1.02
bbx + waw	3	0.105	0.115	0.159
Ugt35C1	1	-1.54	1.11	-0.214
Ugt35C1	2	0.653	0.449	-0.0992
CG11291	1	-0.257	0.139	0.0486
CG11291	2	-0.157	-1.05	-0.237
Mst57Db	1	0.914	-0.352	0.277
CG5280	1	-0.346	0.223	1.27
CG5280	2	-1.54	-0.267	-2.47
CG15579	1	-1.27	1.13	0.726
Gp210	1	-2.87	-0.137	0.864
Gp210	2	-3.23	1.13	0.00365
